From patent US12029748B2, “Synergistic composition for maintenance of healthy balance of microflora” (KIMBERLY-CLARK WORLDWIDE, INC., priority 2017, dated 2024)

System: L. crispatus and E. coli
Experiment: Therapeutic Effect Protocol: L. crispatus / E. coli co-culture, ratio after 36 hours
Type: cell-based, Lactobacillus crispatus; E. coli
Conditions: pH of test solution 36 hours after inoculation; for F pH (final pH), 0.10%: nitrogen compound 0.10 wt/vol % with 1.0 wt/vol % α methyl-D glucoside; for F pH (final pH), 0.50%: nitrogen compound 0.50 wt/vol % with 1.0 wt/vol % α methyl-D glucoside; for F pH (final pH), 1.00%: nitrogen compound 1.00 wt/vol % with 1.0 wt/vol % α methyl-D glucoside
Protocol: As used herein the term “therapeutic effect” refers to the ability of the compositions and formulations of the present invention to stimulate the growth of Lactobacillus relative E. coli measured according to the Therapeutic Effect Protocol described below. Generally, therapeutic effect is expressed as a ratio of Lactobacillus to E. coli and is desirably greater than about 2, more preferably greater than about 20 and more desirably greater than about 100.
The data in Table 1 was tested according to the Therapeutic Effect Protocol as described further herein. The nitrogen compounds were tested for their therapeutic efficacy at three different concentrations when combined with α methyl-D glucoside (1% wt/vol %). The concentrations of the nitrogen containing compounds that were tested were 1% wt/vol %, 0.5% wt/vol %, and 0.1% wt/vol %.
Colonies of L. crispatus and E. coli were prepared as follows. A colony of L. crispatus was transferred to 7 ml de Man, Rogosa & Sharpe (MRS) broth and incubated anaerobically (using BD GasPak EZ anaerobe container system with indicator) at 37° C. without shaking for 18-20 hours. A colony of E. coli was transferred to 5 ml Tryptic Soy Broth (TSB) and incubated aerobically (shaking at 100 rpm) at 37° C. for 18-20 hours.
Colonies were then inoculated as follows. Bacterial cultures were gently vortexed and 1 mL of each culture was transferred to a corresponding 2.0 mL micro-centrifuge tube and then centrifuged for two minutes at 14,500 rpm. The cultural supernatant was removed and the cell pellet was re-suspended in 1 mL of 0.95% (wt/vol %) saline. […] For L. crispatus, the pellet was re-suspended in 1 mL of 0.95% saline to achieve ˜10^7-10^8 cfu/mL. For E. coli, the pellet was re-suspended in 1 mL of 0.95% saline to achieve ˜10^8-10^9 cfu/mL.
Media were prepared as follows.
All of the ingredients in Table 2 were combined and the pH was adjusted to 6.5. […] To evaluate the effect of various nitrogen containing therapeutic agents on the growth of bacteria, the LAPT-g media, prepared as described above, was supplemented with various nitrogen containing compound therapeutic agents to a final test concentration between 0.1 and 1.0%. As initial screening measures, solubility and initial pH of each composition were checked. If a specific composition was insoluble (as detected by visual indication of precipitates or turbidity), then no further therapeutic efficacy testing was undertaken on that composition. Additionally, if the initial pH of the composition was below 5.5 (“Low”) or was above 6.5 (“High”), then no further therapeutic efficacy testing was undertaken on that composition.
Five milliliters (5 mL) of each medium was transferred to a test tube in duplicates for subsequent inoculation. A master mixture of L. crispatus and E. coli, prepared as described above, was prepared in 1,000:1 ratio. Each (5 ml) test tube was inoculated with the master mixture to give 10^5-10^6 total CFU L. crispatus and 100-1,000 total CFU E. coli per tube.
To establish a negative control, one tube was vortexed and 100 μL was removed to determine the initial cell concentrations by serial dilutions and plating (2 plates per dilution). L. crispatus is selected on MRS agar plates incubated anaerobically at 37° C. for two days. E. coli is selected on TSA plates incubated aerobically at 37° C. for one day. The co-cultures were incubated in an anaerobic container with BD GasPaks at 37° C. for 36 hours.
The effect of the α methyl-D glucoside and the nitrogen containing compound therapeutic agents on the ratio of L. crispatus to E. coli was measured 36 hours after inoculation and a final pH of the test solutions was recorded. The co-culture tube was vortexed and 100 μL was removed to determine the final cell concentrations by serial dilutions and plating (2 plates per dilution). L. crispatus is selected on MRS agar plates incubated anaerobically at 37° C. for two days.

| Structure (SMILES) | F pH (final pH), 0.10% | F pH (final pH), 0.50% | F pH (final pH), 1.00% |
| --- | --- | --- | --- |
| CCC(N)C(=O)O (racemic) [DL-a-amino-n-butyric acid] | 4.5 | 4.5 | 5.5 |
| Nc1ncnc2c1ncn2[C@@H]1O[C@H](CO)[C@@H](O)[C@H]1O [Adenosine] | 4 | 4.5 |  |
| C[C@H](N)C(=O)N[C@@H](CC(=O)O)C(=O)O [Ala-Asp] (H-Ala-Asp-OH) | 4 |  |  |
| C[C@H](N)C(=O)N[C@@H](CCC(=O)O)C(=O)O [Ala-Glu] (H-Ala-Glu-OH) | 3.5 |  |  |
| C[C@H](N)C(=O)N[C@@H](Cc1cnc[nH]1)C(=O)O [Ala-His] (H-Ala-His-OH) | 4.5 | 4 |  |
| NC(=O)NC1NC(=O)NC1=O (stereo not drawn) [Allantoin] | 4.5 | 4 |  |
| Nc1ccn([C@@H]2O[C@H](CO)[C@@H](O)[C@H]2O)c(=O)n1 [Cytidine] | 4 | 4 | 5.5 |
| C[C@@H](N)C(=O)O [D-Alanine] | 3.5 | 4.5 | 4.5 |
| NC(=O)C[C@@H](N)C(=O)O [D-Asparagine] | 4 | 4 | 4.5 |
| Cl.N[C@H]1C(O)O[C@H](CO)[C@H](O)[C@@H]1O (stereo partly drawn) [D-Galactosamine HCL] | 3.5 | 4 | 4.5 |
| Cl.N[C@H]1C(O)O[C@H](CO)[C@@H](O)[C@@H]1O (stereo partly drawn) [D-Glucosamine HCL] | 3 | 4 | 3.5 |
| N[C@H](CCC(=O)O)C(=O)O [D-Glutamic Acid] | 4.5 |  |  |
| NC(=O)[C@H]1O[C@@H](O)[C@H](O)[C@@H](O)[C@@H]1O [D-glucoronamide] | 4 | 4 | 4 |
| Cl.N[C@@H]1C(O)O[C@H](CO)[C@@H](O)[C@@H]1O (stereo partly drawn) [D-mannosamine HCl] | 5 | 5 | 5.5 |
| CC(O)C(N)=O (stereo not drawn) [DL Lactamide] | 4 | 4 | 4 |
| NCCCC(=O)O [DL-gamma-amino-n-butyric acid] | 4 | 3.5 | 4.5 |
| NCC(=O)N[C@@H](CC(N)=O)C(=O)O [Gly-Asn] (H-Gly-Asn-OH) | 4 | 4.5 | 4.5 |
| NCC(=O)N[C@@H](CCC(N)=O)C(=O)O.O [Gly-Gln] (H-Gly-Gln-OH) | 4 | 4.5 | 4.5 |
| NCC(=O)N[C@@H](CCC(=O)O)C(=O)O [Gly-Glu] (H-Gly-Glu-OH) | 3.5 |  |  |
| CSCC[C@H](NC(=O)CN)C(=O)O [Gly-Met] | 3.5 | 4 | 4.5 |
| NCC(=O)O [Glycine] |  | 5 | 5 |
| C[C@H](N)C(=O)N[C@H](C(=O)O)[C@@H](C)O [H-Ala-Thr-OH] (H-Ala-Thr-OH) | 3.5 | 4 | 4.5 |
| OC[C@H]1O[C@@H](n2cnc3c(O)ncnc32)[C@H](O)[C@@H]1O [Inosine] | 3.5 | 4 | 4.5 |
| C[C@H](N)C(=O)O [L-Alanine] | 4.5 | 4.5 | 4.5 |

| Structure (SMILES) | F pH (final pH), 0.10% | F pH (final pH), 0.50% | F pH (final pH), 1.00% |
| --- | --- | --- | --- |
| NC(=O)C[C@H](N)C(=O)O [L-Asparagine] | 4 | 4 |  |
| N[C@@H](CC(=O)O)C(=O)O [L-Aspartic Acid] | 4.5 |  |  |
| N[C@@H](CS)C(=O)O [L-Cysteine] | 4 | 4 | 4.5 |
| N[C@@H](CCC(=O)O)C(=O)O [L-Glutamic Acid] | 4.5 |  |  |
| NC(=O)CC[C@H](N)C(=O)O [L-Glutamine] | 4 | 4.5 | 4.5 |
| N[C@@H](Cc1c[nH]cn1)C(=O)O [L-Histidine] | 4.5 |  |  |
| N[C@@H](CCO)C(=O)O [L-Homoserine] | 4 | 5 | 5 |
| CC[C@H](C)[C@H](N)C(=O)O [L-Isoleucine] | 4.5 |  |  |
| CC(C)C[C@H](N)C(=O)O [L-Leucine] | 4.5 | 4.5 |  |
| CSCC[C@H](N)C(=O)O [L-Methionine] | 4.5 | 4 | 4.5 |
| Cl.NCCC[C@H](N)C(=O)O [L-Ornthine] | 4 | 4.5 | 4.5 |
| N[C@@H](Cc1ccccc1)C(=O)O [L-Phenylalanine] | 5 |  |  |
| O=C(O)[C@@H]1CCCN1 [L-Proline] | 4 | 4.5 | 4.5 |
| N[C@@H](CO)C(=O)O [L-Serine] | 3.5 | 4 | 4.5 |
| C[C@@H](O)[C@H](N)C(=O)O [L-Threonine] | 4.5 | 4.4 | 5 |
| N[C@@H](Cc1ccc(O)cc1)C(=O)O [L-Tyrosine] | 4.5 |  |  |
| CC(C)[C@H](N)C(=O)O [L-Valine] | 4.5 | 5 | 4.5 |
| CSCC[C@H](N)C(=O)N[C@@H](C)C(=O)O [Met-Ala] (H-Met-Ala-OH) | 4 |  |  |
| CC(=O)N[C@H]1C(O)O[C@H](CO)[C@H](O)[C@@H]1O (stereo partly drawn) [N-Acetyl-D-Galactosamine] | 3.5 | 4.5 | 5.5 |
| CC(=O)N[C@H]1C(O)O[C@H](CO)[C@@H](O)[C@@H]1O (stereo partly drawn) [N-Acetyl-D-Glucosamine] | 3.5 | 3 | 3.5 |
| CC(=O)N[C@@H]1C(O)O[C@H](CO)[C@@H](O)[C@@H]1O (stereo partly drawn) [N-Acetyl-D-Mannosamine] | 5 | 5 | 5 |
| c1cncnc1 [Pyrimidine] | 3.5 | 4 | 4.5 |
| O=c1cc[nH]c(=O)[nH]1 [Uracil] | 4.5 |  |  |

Where a SMILES comes first, the peptide text is derived from it.
